Numbering of substitutions follows the chain as printed. Human monoclonal antibodies against the spike receptor-binding domain (heavy:light variable regions). IC50 against pseudoviruses bearing the spike of naturally observed variants; lower = stronger; >10 µg/ml means not reached at the top dose. No active / inactive call. The stated detection limit is 0.0005 µg/ml; values near or below 0.001 µg/ml lie at the floor of the assay.
B1: BD56-461 (protein)
chain 1: EVQLVESGGVVLQPGGSLRLSCETSGFTFDEYAMHWVRQAPGKGLEWVSLITWDGGTTYYADSVKGRFTISRDNSKNSLYLQMNSLRPEDTALYYCAKGGEWLDFAPSIWVLDSWGQGTLVSVSS
chain 2: DIVMTQSPDSLAVSLGERATINCKSSQSLLYRSNNKNFLAWYQQKPGQPPKLLINWASTRESGVPDRFSGSGSGTDFTLTISSLQAEDVAVYYCQQYYTTPPLTFGGGTKVEIK
B2: DH1183 (protein)
chain 1: QVQLVESGGGVVQPGRSLRLSCAASGFTFSSYAMHWVRQAPGKGLEWVAVISYDGSNKYYADSVKGRFTISRDNSKNTLYLQMNSLRAEDTAVYYCAREDYYDSSGSLDYWGQGTLVTVSS
chain 2: QSALTQPASVSGSPGQSITISCTGTSSDVGGYNYVSWYQQHPGKAPKLMIYDVSNRPSGVSNRFSGSKSGNTASLTISGLQAEDEADYYCSSYTSSSTWVFGGGTKLTVL
B3: BD56-470 (protein)
chain 1: QVQLVQSGAEVKKPGASVKVSCKASGNTLTSYGISWVRQAPGQGPEWLGWISVYNGYTDYAQKLQDRVTMTTDTSTSTAYMELRSLRSDDTAVYYCVIDRYCSSASCYVGEYYYTMDVWGQGTTVTVSS
chain 2: EIVLTQSPGTLSLSPGERATLSCRASQSVRGSYLAWYQQKPGQAPRLLIYDASNRATGIPDRFSGSGSGTDFTLTISRLEPEDFAVYYCQQYGSSPQTFGQGTKVEIK
B4: BD56-493 (protein)
chain 1: QVQLVQSGAEVTKPGSSVKVSCKTSGDTFSRYAISWVRQAPGQGLDWMGRIIPMFGIANYAQKFQGRVTMTADKSTSTAYLELSSLRSEDTAMYYCARTPFYSDSTGYYLDYWGQGTLVTVSS
chain 2: B3 chain 2 with R30S, A44P, D51G, N54S, G93V, S94N, Q97R
B5: BD56-489 (protein)
chain 1: MQLVQSGPEVKKPGTSVKVSCKAPGFTFTISSVQWVRQARGHRLEWIGWIVIGSANTKYAQNFQERATFTRDMSTGTAYMELSSLRSEDTAVYYCAAPHCNKSRCYDAFDIWGQGTMVTVSS
chain 2: B3 chain 2 with Q27R, R30N, G31S, S32H, K40E, A44P, D51A, N54S, Q97W
B6: DH1128 (protein)
chain 1: EVQLVESGGDLVQPGGSLRLSCAASGFTFSTYAMTWVRQAPGKGLEWVSTISTTGGDTYYADSVKGRFTISRDNSKNTLNLHMNSLRAEDTAVYSCARHNELDYWGQGTLVTVSS
chain 2: EIVLTQSPDFQSVTPNEKVTITCRASQSIGSSLHWYQQKPDQSPKLLIKYASQSLSGVPSRFSGSGSGTDFTLTINSLEVEDGATYYCHQSSSFPRTFGQGTKVEIK
B7: BD56-484 (protein)
chain 1: QVQLVESGGGAVQPGRSLRLSCTASGFTFSRYTIHWVRQAPGKGLEWVAVISYDGTFRYYADSVKGRFTISRDNSKNTLSLQMSSLRGEDTAIYYCARDQVVGSGWSSSFDYWGQGTLVTVSS
chain 2: QSALTQPRSVSGSPGQSITISCTGTSRDVGSYNYVSWYQQHPGKAPKLIIYDVTKRPSGVPGRFSASKSDNTASLTISGLQADDEGDYYCCSYAGDNTFDAYVFGTGTKVTVL
B8: BD56-469 (protein)
chain 1: QVQLVESGGGVVQPGRSLKLSCVASGFTFSRYGMHWVRQAPGKGLEWVAVIWYDGSKKYYADSVKGRFTISRDISKNTLYLQVNSLRAEDTALYYCARGQVYYDSGGWERSDPFDSWGQGTLVTVSS
chain 2: DIQMTQSPSTLSASVGDRVTITCRASQNISSWLAWYQQKPGKAPNVLIYKASSLESGVPSRFSGSGSGTEFTLTISSLQPDDFATYYCQEYTSYWTFGQGTKVEIQ
B9: BD56-466 (protein)
chain 1: QVQLVESGGGVVQPGTSLRLSCAASGFTFRNYGMHWVRQAPGKGLEWVALISFDGSDKYYADSGKGRFTISRDNSKNTLYLQMNSLRAEDTAVYYCAKADSSFTMVRGVVTNNFDFWGQGTLVTVSS
chain 2: SYVLTQAPSVSAVPGKTARITCGGNSIGSKSVHWYQQKPGQAPVAVIFYDSDRPSGIPERFSGSNSGNTAILSISGVEAGDEADYYCQVWDSSSDHVVFGGGTKLTVL
B10: BD56-474 (protein)
chain 1: QVQLVQSGAEVKKPGSSVKVSCKASGGTFSNNAINWVRQAPGQGLEWMGRIIPIFGITNYAQQFQGRVTITADKSTSTGYMELSSLRSADTAVYYCARGGMVGAEYYFDYWGQGTLVTVSS
chain 2: DIVMTQSPDSLAVSLGERATINCKSSQSLLYSSNNKNHLAWYQQKPGQPPKLLLYWSSTRESGVPDRFSGSGSGTDFTLTISGLQAEDVAVYYCQQYYSTSSRTFGQGTKVEIK
B11: BD56-494 (protein)
chain 1: VRLVESGGGLVQPGGSLRLSCAASGFTSFNYWMTWVRQAPGKGLEWVATIKQDGSESYYVDSVKGRFTISRDNAKNSLYLQMNSLRAEDTAVYYCARDGGQLSWFVESYFDYWGQGILVTVSP
chain 2: SYELTQSPSVSVSPGQTARITCSGDALPLQYTYWYQQKPGQAPVLVIYKDTERPSDIPERFSGSSSGTTGTLTISGVQAEDEADYYCQSGDSRGVVFGGGTKLTVL
B12: BD56-481 (protein)
chain 1: QVQLVQSGAEVKKPGSSVKVSCKASGGTFSSYTISWVRQAPGQGLEWMGRIIPILGIADYAQKFQGRVTITADKSTSTAYMELSSLRSEDTAFYYCARSGLLFDDGSGREYYYYGMDVWGQGTTVTVSS
chain 2: EIVMTQSPATLSVSPGERASLSCRASQSVGNNLTWYQQKPGQAPRLLIYDASTRATGIPARFSGSGSGTEFTLTISSLQSEDFAVYYCQQYNSWYTFGQGTKLEIK

Columns and labels:
Assay in all cases: pseudovirus neutralization IC50; higher = weaker neutralization
[1] = molecular target: SARS-CoV-2 Omicron BA.1 spike pseudovirus
Experimental: (§1)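 Single-round VSV luciferase pseudovirus mixed with antibody dilutions for 1 h and put on Huh-7 cells for about a day; IC50 from the dose curve.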

[2] = molecular target: SARS-CoV-2 Omicron BA.2 spike pseudovirus
Experimental: as §1

[3] = molecular target: SARS-CoV-2 Omicron BA.2.75 spike pseudovirus
Experimental: as §1

[4] = molecular target: SARS-CoV-2 Omicron BA.5 spike pseudovirus
Experimental: as §1

[5] = molecular target: SARS-CoV-2 Omicron BQ.1.1 spike pseudovirus
Experimental: as §1

[6] = molecular target: SARS-CoV-2 Omicron XBB spike pseudovirus
Experimental: as §1

[7] = molecular target: SARS-CoV-2 early D614G spike pseudovirus
Experimental: as §1

Row | Binder | pseudovirus neutralization IC50 [1] [µg/mL] | pseudovirus neutralization IC50 [2] [µg/mL] | pseudovirus neutralization IC50 [3] [µg/mL] | pseudovirus neutralization IC50 [4] [µg/mL] | pseudovirus neutralization IC50 [5] [µg/mL] | pseudovirus neutralization IC50 [6] [µg/mL] | pseudovirus neutralization IC50 [7] [µg/mL]
1 | B1 | 8.68 | 8.6 | > 10 | > 10 | > 10 | > 10 | 1.6
2 | B2 | > 10 | > 10 | > 10 | > 10 | > 10 | > 10 | > 10
3 | B3 | 0.00447 | 0.00479 | 0.0043 | 3.35 | 2.85 | > 10 | 0.00509
4 | B4 | 0.038 | 0.0527 | 0.00383 | > 10 | > 10 | > 10 | 0.00417
5 | B5 | 0.00944 | 0.00721 | 0.0134 | > 10 | > 10 | > 10 | 0.00368
6 | B6 | > 10 | > 10 | > 10 | > 10 | > 10 | > 10 | > 10
7 | B7 | 1.93 | 1.76 | 1.79 | 4.6 | > 10 | > 10 | 0.201
8 | B8 | 3.98 | 7.13 | > 10 | 8.28 | > 10 | > 10 | 0.205
9 | B9 | > 10 | > 10 | > 10 | > 10 | > 10 | > 10 | > 10
10 | B10 | 0.0256 | 0.0325 | 0.00337 | > 10 | > 10 | > 10 | 0.00765
11 | B11 | > 10 | > 10 | > 10 | > 10 | > 10 | > 10 | > 10
12 | B12 | > 10 | > 10 | > 10 | > 10 | > 10 | > 10 | 0.0884
